Measured values from several laboratories, pooled; numbers as filed in NIAID ChemDB.

Common to all: growth or infection tests; organism: Mycobacterium tuberculosis

MIC bound comes from a single tested concentration.

structure,strain or isolate,mutations,cell line,read by,measure,dose,result
CC(C)(C)C1CCC(=NNC(=O)c2ccncc2)CC1,Rifampicin-resistant,-,-,-,MIC,-,0.1 µg/mL
CC[C@@H](CO)NCCN[C@@H](CC)CO,H37Rv (ATCC 35811),-,-,broth dilution,MIC,-,8 µg/mL
COc1ncnc(Cn2cnc3c(C(=O)NCC(F)(F)F)cccc32)c1C,H37Rv,-,-,visual reading / absorbance,MIC80,-,<1.32 µM
CCCCOc1ccc2nccc(NN)c2c1,H37Rv,-,VERO,-,MIC,-,12.5 µg/mL
CC(=O)Nc1c2sscc-2n(C)c1=O,H37Rv,-,-,BACTEC,MIC,-,≤1 µg/mL
O=C(O)c1cn(C2CCCCC2)c2cc(NC3CCCCC3)c(F)cc2c1=O,ATCC 27294 (WT),-,-,-,MIC50,-,>200 µM
O=C(c1ccncc1)N1N=C(c2ccco2)CC1(O)C(Cl)(Cl)Cl,RGH103,-,-,-,MIC,-,>268 µM
S=C(S)NNc1ccccc1,PAS-R,-,-,-,MIC,-,>12.5 µg/mL
O=C(O)c1cn(C2CC2)c2cc(N3CCN(c4ccccc4)CC3)c(F)cc2c1=O,-,-,-,-,MIC50,-,2 µg/mL
CCOC(=O)C/C(C)=N\NC(=O)c1ccncc1,-,-,-,-,MIC90,-,0.05 µg/mL
C[C@H]1COc2c(N3CC[C@H](N)C3)c(F)cc3c(=O)c(C(=O)O)cn1c23,Rifampicin-sensitive (7 strains pooled),-,-,-,Mean MIC,-,3.5 µg/mL
NC(=O)NC1OC(COC(=O)c2ccccc2)C(OC(=O)c2ccccc2)C1OC(=O)c1ccccc1,H37Rv,-,-,BACTEC,inhibition,12.5 µg/mL,0%
COc1c(N2C[C@H]3CCCN(C(=O)Cn4cc(CN5C(=O)/C(=N\NC(N)=S)C6(F)C=CC=CC56)nn4)[C@H]3C2)c(F)cc2c1N(C1CC1)CC(C(=O)O)C2=O,H37Rv,-,-,visual reading,MIC,-,8 µg/mL
NC(=S)c1cc(SCc2cccc3ccccc23)ccn1,My 331/88,-,-,-,MIC,-,4 µM
O=C(O)c1cn(-c2ccc(F)cc2F)c2cc(Nc3ccc(F)cc3F)c([N+](=O)[O-])cc2c1=O,ATCC 27294 (WT),-,-,-,MIC50,-,>200 µM
C=CCN(CC=C)CCN1CCN(CCCN2c3ccccc3Sc3ccc(C(F)(F)F)cc32)CC1.Cl.Cl.Cl,H37Rv,-,-,-,MIC,-,6.25 µg/mL
O=C(N/N=C/c1ccccc1)c1ccncc1,-,-,-,-,MIC90,-,0.4 µg/mL
c1cncc(CSc2nc3ccccc3[nH]2)c1,My 331/88,-,-,-,MIC,-,500 µM
O=C(/C=C/C=C/c1ccc2c(c1)OCO2)N1CCCCC1,H37Rv,-,-,PCR,MIC,-,>100 µg/mL
Cc1ccc(C(=S)Nc2ccc(Cl)cc2)cc1,H37Rv,-,-,-,MIC,-,187.5 µM
CC(C)(C)c1ccc(CO[C@@H]2COc3nc([N+](=O)[O-])cn3C2)cc1,H37Rv,-,-,-,MIC,-,0.03 µg/mL
O=C(N/N=C(\COc1ccc(Cl)cc1)N=Cc1cccnc1)c1ccncc1,H37Rv(ATCC25584),-,-,-,MIC,-,>100 µg/mL
S=C(Nc1ccccc1)c1ccccc1,H37Rv,-,-,-,MIC,-,125 µM
O=C(O)c1cn(C2CCCC2)c2cc(NC3CCCC3)c([N+](=O)[O-])cc2c1=O,ATCC 27294 (WT),-,-,-,MIC50,-,>200 µM
O=C(c1ccncc1)N1N=C(c2cccs2)CC1(O)C(F)(F)F,RGH104,-,-,-,MIC,-,>293 µM
O=C1c2ccccc2-n2c1nc1ccc([N+](=O)[O-])cc1c2=O,H37Rv,-,-,BACTEC,MIC bound,-,≤12.5 µg/mL
Cc1ccc(OC/C(N)=N\NC(=O)c2ccncc2)cc1,H37Rv(ATCC25584),-,-,-,MIC,-,6.25 µg/mL
COc1ccc(Cc2cnc(N)nc2N)cc1OC,H37Rv,-,-,-,MIC,-,>123 µM
COC(=O)NS(=O)(=O)c1cccs1,H37Rv,-,-,BACTEC,inhibition,12.5 µg/mL,2%
C[C@H]1COc2c(N3C[C@@H](N)C4(CC4)C3)c(F)cc3c(=O)c(C(=O)O)cn1c23,Rifampicin-sensitive (7 strains pooled),-,-,-,Mean MIC,-,1 µg/mL
CC(C)(C)n1cc(C(=O)O)c(=O)c2cc([N+](=O)[O-])c(N3CCOCC3)cc21,ATCC 27294 (WT),-,-,-,MIC90,-,75 µM
NC[C@H]1O[C@H](O[C@H]2[C@H](O)[C@@H](O[C@H]3O[C@H](CO)[C@@H](O)[C@H](N)[C@H]3O)[C@H](N)C[C@@H]2N)[C@H](O)[C@@H](O)[C@@H]1O,H37Rv,Streptomycin-resistant,-,resazurin / fluorescence,MIC90,-,0.95 µg/mL
C[C@H]1COc2c(N3CC[C@H](N(C)C)C3)c(F)cc3c(=O)c(C(=O)O)cn1c23,Rifampicin-resistant (5 strains pooled),-,-,-,Mean MIC,-,9.5 µg/mL
O=C([C@@H](O)CO)N1CC=C(c2c(F)cc(N3C[C@H](COc4ccon4)OC3=O)cc2F)CC1,AZD5847-resistant 8.10,G2270T,-,-,MIC,-,16 µg/mL
CCC1(C)NN=C2C(=CC=C3NNC(C)(CC)N32)n2cccc21.Cl.Cl,H37Rv,-,-,BACTEC,MIC bound,-,>12.5 µg/mL
O=[N+]([O-])c1cn2c(n1)OC[C@@H](OCc1ccc(OCc3ccccc3)cc1)C2,H37Rv,-,-,-,MIC,-,0.015 µg/mL
O=C(c1ccncc1)N1N=C(c2ccccc2)CC1(O)C(F)(F)F,RGH104,-,-,-,MIC,-,18.66 µM
O=c1[nH]n(CCc2ccccn2)c(=O)c2ccccc12,-,-,-,BACTEC,inhibition,0.5 µM,0%
O=C(O)c1cn(C2CCCCC2)c2cc(NC3CCCCC3)c([N+](=O)[O-])cc2c1=O,ATCC 27294 (WT),-,-,-,MIC50,-,>200 µM
CC(=O)Nc1ccc(OC/C(N)=N\NC(=O)c2ccncc2)cc1,INH-r,-,-,-,MIC,-,>100 µg/mL
CC1(C)[C@H]2CC[C@@H](CNCCNCC(c3ccccc3)c3ccccc3)[C@@H]1C2,-,-,-,-,MIC,-,1.25 µg/mL
COc1ccc(NC(=S)c2cccc(Br)c2)cc1,H37Rv,-,-,-,MIC,-,61.9 µM
COc1ccc(/C=N/Nc2cc(C)nc3ccc(F)cc23)c2ccccc12,H37Rv,-,VERO,-,inhibition,12.5 µg/mL,100%
O=C1OC(C(O)CO)/C(=N/O)C1O,H37Rv,-,-,BACTEC,inhibition,12.5 µg/mL,0%
c1ccc(CSc2nc3ccccc3[nH]2)nc1,My 331/88,-,-,-,MIC,-,250 µM
CN[C@@H]1[C@H](O[C@H]2[C@H](O[C@H]3[C@H](O)[C@@H](O)[C@H](N=C(N)N)[C@@H](O)[C@@H]3N=C(N)N)O[C@@H](C)[C@]2(O)C=O)O[C@@H](CO)[C@H](O)[C@H]1O,H37Rv,Kanamycin-resistant,-,resazurin / fluorescence,MIC90,-,1.2 µg/mL
Cc1ccc2nc(SCc3ccccn3)[nH]c2c1,My 331/88,-,-,-,MIC,-,125 µM
CC(=O)NCC(=O)N1CCN(c2ccc(N3C[C@H](Cn4ccnn4)OC3=O)cc2F)CC1,H37Rv,-,-,visual reading,MIC,-,>54 µM
CCCCc1ccc(CO[C@@H]2COc3nc([N+](=O)[O-])cn3C2)cc1,W (MDR),-,-,-,MIC,-,0.03 µg/mL
COC(=O)/C(=N\Nc1cccnc1)c1ccccn1,H37Rv,-,-,resazurin,inhibition,6.25 µg/mL,-4%
CC(C)(C)n1cc(C(=O)O)c(=O)c2cc([N+](=O)[O-])c(N3CCSCC3)cc21,ATCC 27294 (WT),-,-,-,MIC50,-,1.6 µM
CCN(CC)CCNc1ccc(C)c2oc3ccc(O)cc3c(=O)c12,PZA-R,-,-,-,MIC,-,12.5 µg/mL
O=C(O)c1cn(N2CCSCC2)c2cc(NC3CC3)c([N+](=O)[O-])cc2c1=O,ATCC 27294 (WT),-,-,-,MIC50,-,8 µM
N/C(COc1cccc(Cl)c1)=N/NC(=O)c1ccncc1,INH-r,-,-,-,MIC,-,50 µg/mL
COc1ccc(/C=N/Nc2cc(C)nc3ccc(C4CCCCC4)cc23)c2ccccc12,H37Rv,-,VERO,-,MIC,-,1.56 µg/mL
Cc1ccc(NCCN2CCOCC2)c2c(=O)c3ccccc3sc12,H37Rv,-,-,BACTEC,inhibition,12.5 µg/mL,-21%
CN1CCN(c2c(F)cc3c(=O)c(C(=O)O)cn(CCF)c3c2F)CC1,-,-,-,-,MIC50,-,1.56 µg/mL
O=C(c1ccccc1)N1N=CCCC1O,H37Rv,-,-,BACTEC,inhibition,12.5 µg/mL,5%
O=C(c1ccncc1)N1N=CCC1(O)C(F)(F)F,RGH102,-,-,-,MIC,-,24.13 µM
Cc1c(Cn2cnc3c(C(=O)NCC(F)F)cccc32)ncnc1N(C)C,H37Rv,-,-,visual reading / absorbance,MIC80,-,<0.39 µM
CC[C@@H](CO)NCCN[C@@H](CC)CO,13 strains,-,-,-,inhibition,5 µg/mL,69%
CCOC(=O)C1=C(Nc2ccc(Cl)cc2Cl)OC/C1=N/NS(=O)(=O)c1ccc(C)cc1,H37Rv,-,-,BACTEC,inhibition,12.5 µg/mL,-5%
N#Cc1cc(SCc2cccc3ccccc23)ccn1,My 331/88,-,-,-,MIC,-,>250 µM
Cc1ccc(NC(=S)c2ccc(C)cc2)cc1,H37Rv,-,-,-,MIC,-,250 µM
CC1(C)C(=O)CC[C@]2(C)[C@H]3CC[C@@]4(C)[C@H](c5ccoc5)OC(=O)[C@H]5O[C@]54[C@]3(C)[C@H](O)C[C@@H]12,H37Rv,-,-,BACTEC,MIC,-,≥12.5 µg/mL
CC(=O)NC[C@H]1CN(c2ccc(N3CCOCC3)c(F)c2)C(=O)O1,AZD5847-resistant 8.9,T460C Cys154Arg,-,-,MIC,-,16 µg/mL
COc1c(N2CCNC(C)C2)c(F)cc2c(=O)c(C(=O)O)cn(C3CC3)c12,Rifampicin-resistant (5 strains pooled),-,-,-,Mean MIC,-,1.1 µg/mL
N/C(COc1ccc([N+](=O)[O-])cc1)=N/NC(=O)c1ccncc1,H37Rv(ATCC25584),-,-,-,MIC,-,6.25 µg/mL
COc1cccc(/C=C2/N=C(c3ccccc3)OC2=O)c1OC(C)=O,H37Rv,-,-,BACTEC,MIC bound,-,>12.5 µg/mL
S=C(Nc1ccc(Br)cc1)c1ccc(Cl)cc1,H37Rv,-,-,-,MIC,-,250 µM
Cc1ccc2nc(SCc3ccncc3)[nH]c2c1,My 331/88,-,-,-,MIC,-,125 µM
CC(=O)c1c(CO[N+](=O)[O-])n([O-])c2ccccc2[n+]1=O,H37Rv,-,-,BACTEC,inhibition,12.5 µg/mL,38%
C[C@H]1COc2c(N3CCN(C)CC3)c(F)cc3c(=O)c(C(=O)O)cn1c23,55 isolates,-,-,-,EC50,-,<1 µg/mL
CCCCc1ccc2nc(C)cc(N/N=C/c3ccc4c(c3)OCO4)c2c1,H37Rv,-,VERO,-,MIC,-,6.25 µg/mL
NC(=S)c1cc(SCc2ccccn2)ccn1,My 331/88,-,-,-,MIC,-,125 µM
N/C(COc1ccc(Cl)cc1)=N/NC(=O)c1ccncc1,INH-r,-,-,-,MIC,-,25 µg/mL
O=C1CC(/C2=C/CC/C=C(/C3CC(=O)OC3=O)CC/C(C3CC(=O)OC3=O)=C\CC2)C(=O)O1,H37Rv,-,-,resazurin,inhibition,6.25 µg/mL,-8%
CO[C@H]1/C=C/O[C@@]2(C)Oc3c(C)c(O)c4c(O)c(c(/C=N/N5CCN(C)CC5)c(O)c4c3C2=O)NC(=O)/C(C)=C\C=C\[C@H](C)[C@H](O)[C@@H](C)[C@@H](O)[C@@H](C)[C@H](OC(C)=O)[C@@H]1C,Rifampicin-resistant (5 strains pooled),-,-,-,Mean MIC,-,>100 µg/mL
Cc1ccc(NC(=O)c2cc(S(=O)(=O)Nc3n[nH]c(=O)n3-c3ccccc3)c(S)cc2Cl)cc1,H37Rv,-,-,resazurin,inhibition,6.25 µg/mL,10%
O=C(O)c1cn(C2CCCC2)c2cc(NC3CCCC3)c(F)cc2c1=O,ATCC 27294 (WT),-,-,-,MIC50,-,>200 µM
COc1ccc(OC/C(N)=N\NC(=O)c2ccncc2)cc1,H37Rv(ATCC25584),-,-,-,MIC,-,12.5 µg/mL
CC1=CC2OC3C(OC(=O)CCl)C(OC(=O)CCl)C(C)(C2(COC(=O)CCl)CC1)C31CO1,H37Rv,-,-,resazurin,MIC bound,-,>6.25 µg/mL
O=C(NCC(=O)N1CCN(c2ccc(N3C[C@H](Cn4ccnn4)OC3=O)cc2F)CC1)C1=CC=C([N+](=O)[O-])C1,SRI 1367,Rifampicin-resistant,-,broth dilution / visual reading,inhibition,0.46 µM,58%
c1ccc2c(CSc3ncn[nH]3)cccc2c1,My 331/88,-,-,-,MIC,-,250 µM
O=C(O)c1cn(C2CC2)c2cc(N3CCN(Cc4ccccc4)CC3)c(F)cc2c1=O,-,-,-,-,MIC90,-,2 µg/mL

Again, the opening 8 rows:

{"structure": "CC(C)(C)C1CCC(=NNC(=O)c2ccncc2)CC1", "strain or isolate": "Rifampicin-resistant", "measure": "MIC", "result": "0.1 µg/mL"}
{"structure": "CC[C@@H](CO)NCCN[C@@H](CC)CO", "strain or isolate": "H37Rv (ATCC 35811)", "read by": "broth dilution", "measure": "MIC", "result": "8 µg/mL"}
{"structure": "COc1ncnc(Cn2cnc3c(C(=O)NCC(F)(F)F)cccc32)c1C", "strain or isolate": "H37Rv", "read by": "visual reading / absorbance", "measure": "MIC80", "result": "<1.32 µM"}
{"structure": "CCCCOc1ccc2nccc(NN)c2c1", "strain or isolate": "H37Rv", "cell line": "VERO", "measure": "MIC", "result": "12.5 µg/mL"}
{"structure": "CC(=O)Nc1c2sscc-2n(C)c1=O", "strain or isolate": "H37Rv", "read by": "BACTEC", "measure": "MIC", "result": "≤1 µg/mL"}
{"structure": "O=C(O)c1cn(C2CCCCC2)c2cc(NC3CCCCC3)c(F)cc2c1=O", "strain or isolate": "ATCC 27294 (WT)", "measure": "MIC50", "result": ">200 µM"}
{"structure": "O=C(c1ccncc1)N1N=C(c2ccco2)CC1(O)C(Cl)(Cl)Cl", "strain or isolate": "RGH103", "measure": "MIC", "result": ">268 µM"}
{"structure": "S=C(S)NNc1ccccc1", "strain or isolate": "PAS-R", "measure": "MIC", "result": ">12.5 µg/mL"}

Blank or dashed fields: not listed here. Percent inhibition refers to the dose given; in toxicity tests it is the harm to the cells. ECn: concentration that inhibits the pathogen or its effect by n%. MIC50, MIC90 and the like: level of inhibition, or share of isolates inhibited. Conditions beyond the fields shown may differ between rows.